Square brackets hold non-standard residues; d marks the D form.
Experiment: general procedure: Fmoc solid-phase peptide synthesis; rink amide resin and 2-Chlortrityl resin; HATU (conjugation)
Details: whole synthesis, analytical RP-HPLC

H-[dR][dK][dK][dW][dF][dW]-NH2
final HPLC purity: 96% purity

From paper PMC7765500 (Journal of Fungi, 2020)
